## Mutational interference map of HIV-1 RNA dimerization

The measurements come from Ye et al. 2022 (doi:10.1038/s41594-022-00746-2).

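Randomly mutated transcripts starting with one, two or three G (1G, 2G, 3G), capped or uncapped, were folded for 30 min at 37 °C. High salt was 300 mM KCl and 5 mM MgCl2, low salt 40 mM KCl and 0.1 mM MgCl2; monomer and dimer were parted on a native gel. Mutation frequencies in the two bands give Kdimer.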

The 5' region of HIV-1 NL4-3 RNA (positions 1-437):
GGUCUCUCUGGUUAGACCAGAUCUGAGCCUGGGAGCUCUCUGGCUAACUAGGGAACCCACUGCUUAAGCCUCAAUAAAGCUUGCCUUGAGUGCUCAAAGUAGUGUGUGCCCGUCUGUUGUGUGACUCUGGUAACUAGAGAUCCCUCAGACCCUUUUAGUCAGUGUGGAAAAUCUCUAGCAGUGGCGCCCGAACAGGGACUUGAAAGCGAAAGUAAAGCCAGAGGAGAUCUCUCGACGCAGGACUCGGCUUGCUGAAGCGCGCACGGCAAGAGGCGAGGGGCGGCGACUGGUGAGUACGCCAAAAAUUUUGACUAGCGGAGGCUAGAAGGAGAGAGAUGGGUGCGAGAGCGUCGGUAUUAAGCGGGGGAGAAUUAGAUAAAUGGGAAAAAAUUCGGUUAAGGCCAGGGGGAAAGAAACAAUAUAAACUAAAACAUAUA

Scale: median log2 Kdimer over the changes at a position; positive = changes inhibit dimerization, negative = changes enhance it. One numbering serves 1G, 2G and 3G. A position is written with its base where known.

position,domain,3G capped high-salt,3G capped low-salt,3G uncapped high-salt,3G uncapped low-salt
489,none,0.17,0.09,0.03,-0.02
490,none,-0.04,0.04,-0.03,-0.18
491,none,-0.04,0.12,0.14,-0.10
492,none,-0.09,0.10,0.08,-0.01
493,none,0.00,0.15,0.18,0.04
494,none,0.08,-0.02,0.03,0.13
495,none,-0.03,0.26,-0.02,0.18
496,none,-0.06,-0.01,0.04,-0.03
497,none,0.02,-0.04,0.02,-0.04
498,none,0.12,0.09,0.07,-0.09
499,none,-0.04,0.07,0.01,-0.12
500,none,0.01,-0.05,-0.07,-0.14
501,none,0.01,0.05,0.11,0.07
502,none,0.18,0.29,0.14,0.15
503,none,0.07,-0.03,-0.02,0.13
504,none,-0.02,0.18,-0.03,0.12
505,none,-0.19,0.20,-0.01,0.12
506,none,0.05,0.15,-0.04,0.14
507,none,-0.13,-0.06,0.04,-0.07
508,none,0.11,0.02,0.09,-0.07
509,none,0.05,0.02,0.07,-0.05
510,none,0.01,0.05,-0.01,-0.05
511,none,0.03,0.11,0.04,-0.06
512,none,-0.07,0.00,0.09,-0.03
513,none,0.03,0.02,-0.02,-0.08
514,none,-0.12,0.03,-0.05,-0.07
515,none,0.05,-0.11,-0.02,-0.14

Extract of 3 entries:

{"position": "497", "domain": "none", "3G capped high-salt": 0.02, "3G capped low-salt": -0.04, "3G uncapped high-salt": 0.02, "3G uncapped low-salt": -0.04}
{"position": "512", "domain": "none", "3G capped high-salt": -0.07, "3G capped low-salt": 0.00, "3G uncapped high-salt": 0.09, "3G uncapped low-salt": -0.03}
{"position": "508", "domain": "none", "3G capped high-salt": 0.11, "3G capped low-salt": 0.02, "3G uncapped high-salt": 0.09, "3G uncapped low-salt": -0.07}

The source gives no letters past position 437.